Measurements published in PMC4658428 (Frontiers in Microbiology, 2015).

Columns and labels:
[1] = test system: LdtR mutant Y81A; conditions: benzbromarone:LdtR molar ratio, protein at around 50% DNA binding
[2] = test system: LdtR mutant V26A; conditions: benzbromarone:LdtR molar ratio, protein at around 50% DNA binding
[3] = test system: LdtR mutant Y131A; conditions: 1.5:1 ratio
[4] = test system: LdtR mutant R37A; conditions: benzbromarone:LdtR molar ratio, protein at around 50% DNA binding
[5] = test system: LdtR mutant R30A; conditions: benzbromarone:LdtR molar ratio, protein at around 50% DNA binding
[6] = test system: LdtR mutant V26A; conditions: 1.5:1 ratio
[7] = test system: LdtR mutant N65A; conditions: high ligand:protein molar ratios
[8] = test system: LdtR mutant Y131A; conditions: benzbromarone:LdtR molar ratio, protein at around 50% DNA binding
[9] = test system: LdtR mutant N65A; conditions: benzbromarone:LdtR molar ratio, protein at around 50% DNA binding
[10] = test system: LdtR mutant Y81A; conditions: high ligand:protein molar ratios

SMILES: CCc1oc2ccccc2c1C(=O)c1cc(Br)c(O)c(Br)c1 [benzbromarone]
- excess of benzbromarone at which the LdtR:DNA complex is disrupted [1]: 10 fold excess
- excess of benzbromarone required to disrupt the LdtR:DNA complex [2]: 20 fold excess
- change in melting temperature (ΔTm) [3]: -5.9 ± 0.3 °C
- excess of benzbromarone at which the LdtR:DNA complex is disrupted [4]: 10 fold excess
- excess of benzbromarone at which the LdtR:DNA complex is disrupted [5]: 10 fold excess
- change in melting temperature (ΔTm) [6]: -5.3 ± 0.4 °C
- change in melting temperature (ΔTm) [7]: -3.3 ± 0.4 °C
- excess of benzbromarone at which the LdtR:DNA complex is disrupted [8]: 10 fold excess
- excess of benzbromarone required to disrupt the LdtR:DNA complex [9]: 20 fold excess
- change in melting temperature (ΔTm) [10]: -3.1 ± 0.4 °C
